Results of unrelated studies side by side (data: NIAID ChemDB).

All rows: growth or infection tests; agent: Candida albicans; read-out: MIC50

A number after MIC or MFC names an inhibition level or a share of isolates.

structure,strain,setting,result
CC(=O)OCC1C=C(c2ccc(Br)cc2)C(=O)O1,9 isolates fluconazole-resistant,-,2 µg/mL
COc1ccc(C(Cc2ccc(Cl)cc2)n2cncn2)cc1,28 strains,-,16 µg/mL
N=C(N)N1CCN(Cc2cccnc2SCc2cccc([N+](=O)[O-])c2)CC1,SC5314 CAI,-,>100 µg/mL
CC(C)=CCN=C(N)NCCCCCCCN1CCCCCCCCN=C(N)NC1=O,4T,-,20 µM
COc1ccc(CN2C[C@H](OC[C@@]34C[C@@H]5[C@H](C)CC[C@H]5[C@@]5(C=O)C[C@@H]3CC(C(C)C)[C@@]45C(=O)O)O[C@H](C)C2)cc1,16 isolates/fluconazole resistant,-,0.002 µg/mL
CCCCCCCCCCCCCCCC(=O)NC1CCC(O)NC(=O)C2C(O)C(C)CN2C(=O)C(C(O)CC(N)=O)NC(=O)C(C(O)Cc2ccc(O)c(OS(=O)(=O)O)c2)NC(=O)C2CC(O)CN2C(=O)C(C(C)O)NC1=O,FP629,-,0.008 µg/mL
N=C(N)N1CCN(Cc2cccnc2SCc2c(F)cccc2Cl)CC1,SC5314 CAI,-,>100 µg/mL
Nc1[nH]c(=O)ncc1F,58 strains,-,0.12 µg/mL
COc1ccc(C(Cc2ccc(N)cc2)n2ccnc2)cc1,34 strains,-,4 µg/mL
CC(=O)OCC1C=C(c2cccc(Cl)c2)C(=O)O1,16 isolates fluconazole-susceptible,-,2 µg/mL
CCC(C)n1ncn(-c2ccc(N3CCN(c4ccc(OC[C@H]5CO[C@](Cn6cncn6)(c6ccc(Cl)cc6Cl)O5)cc4)CC3)cc2)c1=O,37 isolates,-,0.0313 µg/mL
N=C(N)N1CCN(Cc2cccnc2SCc2ccc(Cl)cc2)CC1,SC5314 CAI,-,75 µg/mL
C=C(CF)CN1C[C@H](OC[C@@]23C[C@@H]4[C@H](C)CC[C@H]4[C@@]4(C=O)C[C@@H]2CC(C(C)C)[C@@]34C(=O)O)O[C@H](C)C1,16 isolates/fluconazole resistant,-,0.008 µg/mL
CC[C@@H]([C@H](C)O)n1ncn(-c2ccc(N3CCN(c4ccc(OC[C@@H]5CO[C@@](Cn6cncn6)(c6ccc(F)cc6F)C5)cc4)CC3)cc2)c1=O,10 strains (fluconazole- itraconazole-susceptible),-,<0.03 µg/mL
Nc1[nH]c(=O)ncc1F,10 isolates azole-resistant,-,0.16 µg/mL
COc1ccc(C(Cc2ccccc2N)n2ccnc2)cc1,34 strains,-,32 µg/mL
N=C(N)N1CCN(Cc2cccnc2SCc2c(F)cc(F)cc2F)CC1,SC5314 CAI,-,>100 µg/mL
CC(=O)N1CCN(c2ccc(OC[C@H]3CO[C@](Cn4ccnc4)(c4ccc(Cl)cc4Cl)O3)cc2)CC1,10 isolates azole-resistant,-,0.01 µg/mL
NC(N)=NCCCCCCCCCNCCCCCCCN=C(N)N,4T,-,80 µM
COc1ccc(C(Cc2ccc(Cl)cc2)n2cnnc2)cc1,28 strains,-,128 µg/mL
N#Cc1ccccc1CSc1ncccc1CN1CCN(C(=N)N)CC1,SC5314 CAI,-,>100 µg/mL
OC(Cn1cncn1)(Cn1cncn1)c1ccc(F)cc1F,Isolate M27-T-micro,24 h,0.39 µg/mL
CC[C@@H](c1ccc(Cl)cc1)[C@@H](c1ccc(OC)cc1)n1cnnc1,28 strains,-,128 µg/mL
C/C=C/CN=C(N)NCCCCCCCN1CCCCCCCCN=C(N)NC1=O,53T,-,2.5 µM
COc1ccc(C(Cc2ccc(F)cc2)n2ccnc2)cc1,34 strains,-,32 µg/mL
CCCCCCCCCCCCCCCC(=O)N[C@H]1C[C@@H](O)[C@@H](O)NC(=O)[C@@H]2[C@@H](O)[C@@H](C)CN2C(=O)[C@H]([C@@H](C)O)NC(=O)[C@H]([C@H](O)[C@@H](O)c2ccc(O)cc2)NC(=O)[C@@H]2C[C@@H](O)CN2C(=O)[C@H]([C@@H](C)O)NC1=O,FP629,-,0.015 µg/mL
CC(C)=CCCNC(N)=NCCCCCCCCCNCCCCCCCN=C(N)N,ATCC 60193,-,80 µM
CCC(c1ccc(OC)cc1)C(c1ccc(OC)cc1)n1cnnc1,28 strains,-,256 µg/mL
COc1ccc(C(Cc2ccccc2F)n2ccnc2)cc1,34 strains,-,128 µg/mL
N=C(N)N(CCCCCCCCCN=C(N)N)CCCCCCCN=C(N)N,ATCC 60193,-,5 µM
COc1ccc(C(C(Cc2ccc(Cl)cc2Cl)c2ccc(Cl)cc2)n2ccnc2)cc1,28 strains,-,16 µg/mL
C=CCN1C[C@H](OC[C@@]23C[C@@H]4[C@H](C)CC[C@H]4[C@@]4(C=O)C[C@@H]2CC(C(C)C)[C@@]34C(=O)O)O[C@H](C)C1,16 isolates/fluconazole resistant,-,0.03 µg/mL
CCC(c1ccc(Cl)cc1)C(c1ccc(OC)cc1)n1cncn1,28 strains,-,64 µg/mL
N=C(N)N1CCN(Cc2cccnc2SCc2ccc(Br)cc2)CC1,SC5314 CAI,-,75 µg/mL

The last 2 rows once more:

structure,strain,setting,result
CCC(c1ccc(Cl)cc1)C(c1ccc(OC)cc1)n1cncn1,28 strains,-,64 µg/mL
N=C(N)N1CCN(Cc2cccnc2SCc2ccc(Br)cc2)CC1,SC5314 CAI,-,75 µg/mL

Rows are shuffled and stem from different studies. Blank or dashed fields: not listed here.